Results of unrelated studies side by side (data: NIAID ChemDB).

Shared fields: whole-cell or culture tests; species: Mycobacterium avium complex

ECn is the concentration giving n% inhibition of infection, replication or growth. Zone: diameter of growth inhibition. A number after MIC or MFC names an inhibition level or a share of isolates. Two numbers with a dash give a range or band. Percent inhibition refers to the dose given; in toxicity tests it is the harm to the cells. An empty or dashed field is not shown. Rows are shuffled and stem from different studies.

{"smiles": "NC1CCN(c2nc3c(cc2F)c(=O)c(C(=O)O)cn3-c2ccc(F)cc2F)C1", "strain": "ATCC 35718", "read-out": "MBC", "value": ">8 µg/mL"}
{"smiles": "CN[C@@H]1[C@@H](O)[C@@H](O[C@@H]2[C@@H](O)[C@H](O[C@H]3O[C@H](CN)CC[C@H]3N)[C@@H](N)C[C@H]2N)OC[C@]1(C)O", "strain": "ATCC 35718", "read-out": "MBC", "value": ">64 µg/mL"}
{"smiles": "CN(C)S(=O)(=O)n1cnc2c(=S)nc[nH]c21", "read by": "resazurin", "read-out": "EC50", "value": ">12.5 µM"}
{"smiles": "CC(C)N1CCN(c2nc3c(cc2F)c(=O)c(C(=O)O)cn3C(C)(C)C)CC1", "strain": "14 strains", "read-out": "MIC50", "value": "1 µg/mL"}
{"smiles": "CO[C@H]1/C=C/O[C@@]2(C)Oc3c(C)c(O)c4c(O)c(c5c(c4c3C2=O)NC2(CCN(CC(C)C)CC2)N=5)=NC(=O)/C(C)=C\\C=C\\[C@H](C)[C@H](O)[C@@H](C)[C@@H](O)[C@@H](C)[C@H](OC(C)=O)[C@@H]1C", "strain": "3350", "read-out": "MBC", "value": "1 µg/mL"}
{"smiles": "CO[C@H]1/C=C/O[C@@]2(C)Oc3c(C)c(O)c4c(O)c(c5c(c4c3C2=O)NC2(CCN(CC(C)C)CC2)N=5)=NC(=O)/C(C)=C\\C=C\\[C@H](C)[C@H](O)[C@@H](C)[C@@H](O)[C@@H](C)[C@H](OC(C)=O)[C@@H]1C", "strain": "230 isolates", "read-out": "MIC50", "value": "0.14 µg/mL"}
{"smiles": "NC1CCCCN(c2c(F)cc3c(=O)c(C(=O)O)cn(C4CC4)c3c2F)C1=O", "strain": "1760694", "read-out": "MIC", "value": "32 µg/mL"}
{"smiles": "Nc1ccc(C(=O)O)c(O)c1", "strain": "97 strains", "read by": "agar", "read-out": "EC50", "value": ">10 µg/mL"}
{"smiles": "CN(C)c1c(F)c(N2CCC(N(C)C)C2)c(F)c2c1c(=O)c(C(=O)O)cn2C1CC1", "strain": "PI12/39", "read-out": "MIC", "value": "32 µg/mL"}
{"smiles": "CCC1CN(c2cc3c(cc2F)c(=O)c(C(=O)O)cn3C(C)(C)C)CCN1", "strain": "14 strains", "read-out": "MIC50", "value": "2 µg/mL"}
{"smiles": "NCC[C@H](O)C(=O)N[C@@H]1C[C@H](N)[C@@H](O[C@H]2O[C@H](CN)[C@@H](O)[C@H](O)[C@H]2O)[C@H](O)[C@H]1O[C@H]1O[C@H](CO)[C@@H](O)[C@H](N)[C@H]1O", "strain": "101", "read-out": "MBC", "value": "2 µg/mL"}
{"smiles": "CC[C@@H](CO)NCCN[C@@H](CC)CO", "strain": "14 strains", "read-out": "inhibition", "dose": "5 µg/mL", "value": "0%"}
{"smiles": "CC[C@@H](CO)NCCN[C@@H](CC)CO", "strain": "3350-4", "read-out": "MBC", "value": "30 µg/mL"}
{"smiles": "O=C(N[C@H]([C@H](O)CNCc1cccc(I)c1)C(F)(F)c1ccccc1)OCc1ccccc1", "strain": "P", "read by": "agar diffusion", "read-out": "zone", "dose": "50 µg/disc", "value": "0 mm"}
{"smiles": "CC(C)N1CCN(c2cc3c(cc2F)c(=O)c(C(=O)O)cn3-c2ccc(F)cc2F)CC1", "strain": "14 strains", "read-out": "MIC50", "value": "8 µg/mL"}
{"smiles": "O=[N+]([O-])[O][Ga]([O][N+](=O)[O-])[O][N+](=O)[O-]", "strain": "1", "read-out": "EC50", "value": "<500 µM"}
{"smiles": "CO[C@H]1/C=C/O[C@@]2(C)Oc3c(C)c(O)c4c(O)c(c(/C=N/N5CCN(C/C=C/c6ccccc6)CC5)c(O)c4c3C2=O)NC(=O)/C(C)=C\\C=C\\[C@H](C)[C@H](O)[C@@H](C)[C@@H](O)[C@@H](C)[C@H](OC(C)=O)[C@@H]1C", "strain": "SK-18", "read-out": "MBC", "value": "2 µg/mL"}
{"smiles": "CC1(CN)CCN(c2c(F)cc3c(=O)c(C(=O)O)cn(C4CC4)c3c2F)C1", "strain": "PI12/39", "read-out": "MIC", "value": "32 µg/mL"}
{"smiles": "O=C(O)c1cn(C2CC2)c2c(F)c(N3CC4C(CO)C4C3)c(F)cc2c1=O", "read-out": "MIC50", "value": "8 µg/mL"}
{"smiles": "CC[C@@H](CO)NCCN[C@@H](CC)CO", "strain": "3350-4", "read-out": "MBC", "value": "30 µg/mL"}
{"smiles": "CC(C)N=c1cc2n(-c3ccc(Cl)cc3)c3ccccc3nc-2cc1Nc1ccc(Cl)cc1", "strain": "549/HIV+", "read-out": "MIC", "value": "0.5 µg/mL"}
{"smiles": "CC[C@@H](CO)NCCN[C@@H](CC)CO", "strain": "32 isolates", "read-out": "MIC50", "value": "8 µg/mL"}
{"smiles": "CC1CN(c2cc3c(cc2F)c(=O)c(C(=O)O)cn3C(C)(C)C)CCN1", "strain": "14 strains", "read-out": "MIC50", "value": "0.25 µg/mL"}
{"smiles": "CCn1cc(C(=O)O)c(=O)c2cc(F)c(N3CCNC(C)C3)c(F)c21", "strain": "4 strains", "read-out": "MBC", "value": "8–16 µg/mL"}
{"smiles": "NCC1CN(c2c(F)cc3c(=O)c(C(=O)O)cn(C4CC4)c3c2F)CC1c1ccccc1", "strain": "1988557", "read-out": "MIC", "value": "4 µg/mL"}
{"smiles": "CO[C@H]1/C=C/O[C@@]2(C)Oc3c(C)c(O)c4c(O)c(c(/C=N/N5CCN6CCCCC6C5)c(O)c4c3C2=O)NC(=O)/C(C)=C\\C=C\\[C@H](C)[C@H](O)[C@@H](C)[C@@H](O)[C@@H](C)[C@H](OC(C)=O)[C@@H]1C", "strain": "26 strains", "read-out": "EC50", "value": "<0.6 µg/mL"}
{"smiles": "CC(C)N=c1cc2n(-c3ccc(Cl)cc3)c3ccccc3nc-2cc1Nc1ccc(Cl)cc1", "strain": "32 isolates", "read-out": "MIC50", "value": "1 µg/mL"}
{"smiles": "CN[C@@H]1[C@H](O[C@H]2[C@H](O[C@H]3[C@H](O)[C@@H](O)[C@H](N=C(N)N)[C@@H](O)[C@@H]3N=C(N)N)O[C@@H](C)[C@]2(O)C=O)O[C@@H](CO)[C@H](O)[C@H]1O", "strain": "Isolate C-50", "read-out": "MIC", "value": "≤12.5 µg/mL"}
{"smiles": "CCN1CCN(c2cc3c(cc2F)c(=O)c(C(=O)O)cn3C(C)C)CC1", "strain": "14 strains", "read-out": "MIC50", "value": "≥32 µg/mL"}
{"smiles": "COC(=O)[C@H]1[C@H]2C[C@@H]3c4[nH]c5cc(OC)ccc5c4CCN3C[C@H]2C[C@@H](OC(=O)c2cc(OC)c(OC)c(OC)c2)[C@@H]1OC", "strain": "32 isolates", "read-out": "MIC50", "value": "64 µg/mL"}
{"smiles": "NC[C@@H]1O[C@H](O[C@H]2[C@@H](O)[C@H](O[C@@H]3[C@@H](O)[C@H](N)C[C@H](N)[C@H]3O[C@H]3O[C@H](CO)[C@@H](O)[C@H](O)[C@H]3N)O[C@@H]2CO)[C@H](N)[C@@H](O)[C@@H]1O", "strain": "545/HIV+", "read-out": "MIC", "value": "1.56 µg/mL"}
{"smiles": "CN[C@@H]1[C@H](O[C@H]2[C@H](O[C@H]3[C@H](O)[C@@H](O)[C@H](N=C(N)N)[C@@H](O)[C@@H]3N=C(N)N)O[C@@H](C)[C@]2(O)C=O)O[C@@H](CO)[C@H](O)[C@H]1O", "strain": "TMC 1411", "read-out": "MIC", "value": "0.39 µg/mL"}
{"smiles": "CC(C)N1CCN(c2c(F)cc3c(=O)c(C(=O)O)cn(C4CC4)c3c2F)CC1", "strain": "14 strains", "read-out": "MIC50", "value": "2 µg/mL"}
{"smiles": "Nc1ccn([C@@H]2O[C@H](CO)[C@@H](O)[C@@H]2O)c(=O)n1", "strain": "32 isolates", "read-out": "MIC50", "value": ">128 µg/mL"}
{"smiles": "CC(C)(C)n1cc(C(=O)O)c(=O)c2cc(F)c(N3CCNCC3)cc21", "strain": "14 strains", "read-out": "MIC90", "value": "4 µg/mL"}
{"smiles": "CN[C@@H]1[C@H](O)[C@H](NC)[C@H]2O[C@@]3(O)C(=O)C[C@@H](C)O[C@H]3O[C@@H]2[C@H]1O", "strain": "25 isolates", "read-out": "MBC90", "value": ">64 µg/mL"}
{"smiles": "C[C@@H]1CN(c2c(F)c(N)c3c(=O)c(C(=O)O)cn(C4CC4)c3c2F)C[C@H](C)N1", "strain": "2", "read by": "broth dilution", "read-out": "MIC", "value": "2 µg/mL"}
{"smiles": "CCC1CN(c2nc3c(cc2F)c(=O)c(C(=O)O)cn3C(C)(C)C)CCN1", "strain": "14 strains", "read-out": "MIC50", "value": "2 µg/mL"}

A second listing of 5 rows from above:

smiles	strain	read by	read-out	dose	value
CC(C)(C)n1cc(C(=O)O)c(=O)c2cc(F)c(N3CCNCC3)cc21	14 strains		MIC90		4 µg/mL
CN[C@@H]1[C@H](O[C@H]2[C@H](O[C@H]3[C@H](O)[C@@H](O)[C@H](N=C(N)N)[C@@H](O)[C@@H]3N=C(N)N)O[C@@H](C)[C@]2(O)C=O)O[C@@H](CO)[C@H](O)[C@H]1O	Isolate C-50		MIC		≤12.5 µg/mL
Nc1ccc(C(=O)O)c(O)c1	97 strains	agar	EC50		>10 µg/mL
CCC1CN(c2cc3c(cc2F)c(=O)c(C(=O)O)cn3C(C)(C)C)CCN1	14 strains		MIC50		2 µg/mL
CN[C@@H]1[C@H](O)[C@H](NC)[C@H]2O[C@@]3(O)C(=O)C[C@@H](C)O[C@H]3O[C@@H]2[C@H]1O	25 isolates		MBC90		>64 µg/mL